# Share of PSTVd loop 15 variants by leaf site

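A pool of all variants was put on leaves of three Nicotiana benthamiana plants. Samples came from the inoculated region at 5 days, the leaf margin at 10 and upper systemic leaves at 12.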

The pool varies loop 15 of the PSTVd intermediate strain in the pattern GGAAACCGNNNNNNC; wild type is GGAAACCGCUACUAC (upper and lower strand joined, each 5' to 3', the first 7 letters being the upper strand, closing pairs included).

Values are reads per thousand in the sample; higher means more abundant, 0 means not found. Each site shows the three plants. "Pool" is the share in the plasmid pool used as inoculum, on the same scale. The inoculated region was read from the minus strand, the other sites from the plus strand. IR is the inoculated region, LM the leaf margin, Sys the systemic leaves.

GGAAACCGGUAAGUC (pool 0.256) gave IR 0.0819 / 0.0643 / 0.0762; LM 0 / 0.0223 / 0.0200; Sys 0 / 0 / 0. GGAAACCGCAAGUAC (pool 0.160) gave IR 0.213 / 0.498 / 0.324; LM 0.113 / 0.0668 / 0.0401; Sys 0.0322 / 0.0605 / 0.160. GGAAACCGAUGGCAC (pool 0.0640) read IR 0.0819 / 0.0482 / 0.0952; LM 0 / 0 / 0; Sys 0 / 0 / 0. With GGAAACCGCCUAGAC (pool 0.160) the assay gave IR 0.131 / 0.112 / 0.0762; LM 0 / 0 / 0; Sys 0 / 0 / 0. GGAAACCGUACCUAC (pool 0.288) read IR 0.442 / 0.305 / 0.457; LM 0.129 / 0.134 / 0.180; Sys 0.0483 / 0.0303 / 0.114. With GGAAACCGUAGGACC (pool 0.0960) the assay gave IR 0.164 / 0.0482 / 0.0952; LM 0 / 0 / 0; Sys 0 / 0 / 0.0456. For GGAAACCGGAGGGUC (pool 0.256) the result was IR 0.0983 / 0.0803 / 0.190; LM 0 / 0 / 0.0200; Sys 0 / 0 / 0. GGAAACCGUGAGAAC (pool 0.240) read IR 0.229 / 0.337 / 0.324; LM 0.129 / 0.0668 / 0.0601; Sys 0.0483 / 0.0303 / 0.0456.

GGAAACCGUAUGGCC (pool 0.192) read IR 0.147 / 0.112 / 0.0571; LM 0 / 0.0223 / 0; Sys 0 / 0 / 0. GGAAACCGCGCCAAC (pool 0.192) read IR 0.115 / 0.161 / 0.0952; LM 0.0162 / 0 / 0; Sys 0 / 0 / 0. For GGAAACCGCUACCGC (pool 0.160) the result was IR 0.0819 / 0.0803 / 0.0381; LM 0.0162 / 0 / 0.0200; Sys 0 / 0 / 0. GGAAACCGGCUUGAC (pool 0.224) gave IR 0.0819 / 0.112 / 0.0571; LM 0.0162 / 0.0223 / 0; Sys 0 / 0 / 0. GGAAACCGUUAAUGC (pool 0.288) gave IR 0.213 / 0.305 / 0.267; LM 0.146 / 0.0223 / 0.160; Sys 0.0161 / 0.0605 / 0.137. With GGAAACCGAGAGCUC (pool 0.160) the assay gave IR 0.147 / 0.112 / 0.171; LM 0 / 0.0223 / 0; Sys 0 / 0 / 0. GGAAACCGUCCGGAC (pool 0.176) gave IR 0.344 / 0.337 / 0.305; LM 0.0808 / 0.111 / 0.140; Sys 0.0483 / 0 / 0. For GGAAACCGCCAGAGC (pool 0.272) the result was IR 0.246 / 0.209 / 0.286; LM 0.0647 / 0.0668 / 0.0801; Sys 0.0644 / 0 / 0.

GGAAACCGGCCGAUC (pool 0.192) gave IR 0.278 / 0.305 / 0.400; LM 0.146 / 0.0668 / 0.160; Sys 0.0322 / 0 / 0. For GGAAACCGCCAAAGC (pool 0.112) the result was IR 0.164 / 0.129 / 0.133; LM 0.0162 / 0 / 0.0200; Sys 0 / 0 / 0. For GGAAACCGCUCUUGC (pool 0.256) the result was IR 0.115 / 0.161 / 0.0381; LM 0 / 0.0223 / 0.0200; Sys 0 / 0 / 0. With GGAAACCGGAGCAGC (pool 0.240) the assay gave IR 0.147 / 0.0964 / 0.0952; LM 0 / 0 / 0.0200; Sys 0 / 0 / 0. For GGAAACCGAUCACUC (pool 0.176) the result was IR 0.131 / 0.0643 / 0.0952; LM 0.0162 / 0 / 0.0401; Sys 0.0161 / 0 / 0. GGAAACCGCCAGGGC (pool 0.192) gave IR 0.115 / 0.0643 / 0.0571; LM 0 / 0.0223 / 0; Sys 0 / 0 / 0. GGAAACCGCUGCUAC (pool 0.352) read IR 0.442 / 0.321 / 0.666; LM 0.275 / 0.334 / 0.301; Sys 0.0966 / 0.0756 / 0. With GGAAACCGAUGGUUC (pool 0.240) the assay gave IR 0.311 / 0.321 / 0.286; LM 0.0808 / 0.0445 / 0.160; Sys 0.0161 / 0.0303 / 0.0456.

GGAAACCGUUUUCGC (pool 0.192) gave IR 0.0491 / 0.0321 / 0.114; LM 0.0485 / 0 / 0; Sys 0 / 0 / 0. GGAAACCGCAGCGAC (pool 0.112) read IR 0.0655 / 0.112 / 0.0571; LM 0 / 0.0223 / 0; Sys 0 / 0 / 0. GGAAACCGAUAGACC (pool 0.240) gave IR 0.246 / 0.369 / 0.495; LM 0.113 / 0.0668 / 0.120; Sys 0.0161 / 0 / 0. GGAAACCGAGAUACC (pool 0.272) read IR 0.115 / 0.0803 / 0.0190; LM 0.0162 / 0 / 0.0401; Sys 0 / 0 / 0. GGAAACCGGCGUGCC (pool 0.176) read IR 0.0983 / 0.145 / 0.0952; LM 0 / 0 / 0.0200; Sys 0 / 0 / 0. With GGAAACCGAGACAAC (pool 0.208) the assay gave IR 0.229 / 0.337 / 0.343; LM 0.0323 / 0.0668 / 0.100; Sys 0.0644 / 0 / 0. GGAAACCGCGCCCUC (pool 0.176) read IR 0.0655 / 0.0482 / 0.0952; LM 0.0323 / 0.0223 / 0.0200; Sys 0.0161 / 0 / 0. For GGAAACCGUCUUCGC (pool 0.208) the result was IR 0.0655 / 0.112 / 0.0762; LM 0 / 0.0445 / 0; Sys 0.0161 / 0 / 0.

With GGAAACCGCUAAGCC (pool 0.224) the assay gave IR 0.0655 / 0.0482 / 0.0571; LM 0.0162 / 0.0223 / 0.0401; Sys 0 / 0 / 0. For GGAAACCGGCCAGGC (pool 0.288) the result was IR 0.0819 / 0.0161 / 0.133; LM 0 / 0 / 0; Sys 0 / 0 / 0. GGAAACCGGGUAGGC (pool 0.336) gave IR 0.0655 / 0.129 / 0.114; LM 0 / 0 / 0.0200; Sys 0 / 0 / 0. GGAAACCGGGUCAAC (pool 0.304) gave IR 0.0655 / 0.0964 / 0.114; LM 0 / 0.0223 / 0.0401; Sys 0 / 0 / 0.

The opening 2 entries, copied out:

{"sequence": "GGAAACCGGUAAGUC", "pool": "0.256", "IR": "0.0819 / 0.0643 / 0.0762", "LM": "0 / 0.0223 / 0.0200", "Sys": "0 / 0 / 0"}
{"sequence": "GGAAACCGCAAGUAC", "pool": "0.160", "IR": "0.213 / 0.498 / 0.324", "LM": "0.113 / 0.0668 / 0.0401", "Sys": "0.0322 / 0.0605 / 0.160"}

With 43,870-66,106 reads a sample, very low values are single reads. Sequences that differ at fixed positions probably stem from PCR or sequencing errors, and defective variants can be carried along by functional ones. For reference, wild type rose from 33.9 per thousand in the pool to 202, 200, 159 (inoculated region), 724, 746, 710 (leaf margin) and 856, 883, 880 (systemic leaves).

Values reported by Wu et al. 2024 (doi:10.1371/journal.ppat.1012142).